Results of unrelated studies side by side (data: NIAID ChemDB).

All rows: host cell toxicity; cell line: CEM; measure: CC50

Neighbouring rows are from separate reports. CCn: concentration that lowers growth or viability of the cells by n%.

SMILES	value
CCCCCCCCCCCCC(N=[N+]=[N-])C(=O)OC[C@H]1O[C@@H](n2cc(C)c(=O)[nH]c2=O)C[C@@H]1O	>20 µM
CC(C)CCC[C@@H](C)[C@H]1CC[C@H]2[C@@H]3CC[C@H]4C[C@@H](CCC=C(c5cc(Cl)c(O)c(C(=O)O)c5)c5cc(Cl)c(O)c(C(=O)O)c5)CC[C@]4(C)[C@H]3CC[C@]12C	>310 µM
CN(C)C1CC12C1CC3CC(C1)CC2C3	>200 µg/mL
Cc1cnc2n1S(=O)(=O)c1cc(C(=O)NCC(C)C)c(Cl)cc1S2	>200 µM
CC(C)C[C@@H](CC(=O)O)NC(=O)c1ccccc1SSc1ccccc1C(=O)N[C@H](CC(=O)O)CC(C)C	92 µM
CCCCCOC(=O)CCCCCCC(=O)O	>100 µg/mL
CC(C)CCC[C@@H](C)[C@H]1CC[C@H]2[C@@H]3CC[C@H]4C[C@@H](CCC=C(c5cc(Br)c(O)c(C(=O)O)c5)c5cc(Br)c(O)c(C(=O)O)c5)CC[C@]4(C)[C@H]3CC[C@]12C	>280 µM
Cc1cn([C@@H]2O[C@@H]3CN[C@@]4(OCc5ccccc5)CS(=O)(=O)O[C@@]34[C@H]2O)c(=O)[nH]c1=O	>250 µM
Nc1ccn([C@@H]2S[C@H](CO)C=C2F)c(=O)n1	>100 µM
COC(=O)C(C)(C)NP(=O)(OC[C@@H]1C=C[C@H](n2cc(C)c(=O)[nH]c2=O)O1)Oc1ccccc1	225 µM
CCCCCO[C@]12CS(=O)(=O)O[C@@]13[C@@H](CN2)O[C@@H](n1cc(C)c(=O)[nH]c1=O)[C@@H]3O	>250 µM
CN(C)CC1CC12C1CC3CC(C1)CC2C3	23 µg/mL
COc1cc2c3c(ccnc3c1OC)NC=C2	3.3 µM
Cc1cccc(C)c1N1C(=O)c2ccc(O)cc2C1=O	74 µM
COc1cc(OC[C@H]2CC[C@@H](CO)O2)nc(N)n1	>50 µM
Nc1ccc([C@H]2C[C@H](O)[C@@H](CO)O2)c(F)c1	>500 µM
COc1cc(Cc2cnc(/N=C3\C(=O)N(CN4CCNCC4)c4ccc(C)cc43)nc2N)cc(OC)c1OC	89.2 µM
CCO[C@]12CS(=O)(=O)O[C@@]13C(CN2)O[C@@H](n1cc(C)c(=O)n(C)c1=O)[C@@H]3O[Si](C)(C)C(C)(C)C	32 µM
CC1(CO)CCC(Cn2nnc3c(=O)[nH]c(N)nc32)C1(C)C	156 µg/mL
Cc1cn(CC2(CO)CC2CO)c(=O)[nH]c1=O	>100 µg/mL
CCCNC(=O)CCCCCCCCC(=O)O	>100 µg/mL
C1CN(CC2CC2)C2(C1)C1CC3CC(C1)CC2C3	>200 µg/mL
COc1cc(Cc2cnc(/N=C3\C(=O)N(CN4CCN(c5cccc(C(F)(F)F)c5)CC4)c4ccc(C)cc43)nc2N)cc(OC)c1OC	118 µM
CCCCNC(=O)CCCCCCCC(=O)O	>100 µg/mL
CCCCCCCCCCCN1C=Cc2cc(OC)c(O)c3c2c1cc[n+]3CCCCCCCCCCC	3.8 µM
O=C(O)C[C@H](CC1CC1)NC(=O)c1ccccc1SSc1ccccc1C(=O)N[C@H](CC(=O)O)CC1CC1	>100 µM
CCCC[C@H](NP(=O)(OC[C@@H]1C=C[C@H](n2cc(C)c(=O)[nH]c2=O)O1)Oc1ccccc1)C(=O)OC	168 µM
COc1cc(OC[C@H]2CC[C@@H](COCc3ccccc3)O2)ncn1	50 µM
CCCc1c(Cc2cccc3ccccc23)n(COCCO)c(=O)[nH]c1=O	108 µM
Cc1cccc(N2C(=O)CSC2c2c(C(F)(F)F)ccc(Cl)c2F)n1	79.1 µM
O=c1[nH]c(=O)n([C@@H]2C[C@@H](F)[C@H](CO)O2)cc1Cl	>100 µM
CCCCCCCCCCCCCCCC=C(c1cc(Cl)c(OC)c(C(=O)O)c1)c1cc(Cl)c(OC)c(C(=O)O)c1	25.9 µM
CCCCCCNC(=O)CCCCCC(=O)O	>100 µg/mL
CCCCCC=C(c1cc(Br)cc(C(=O)O)c1OC)c1cc(Br)cc(C(=O)O)c1OC	175 µM
COc1c(N2CCN(CN3C(=O)O[C@](C#CC4CC4)(C(F)(F)F)c4cc(Cl)ccc43)CC2)c(F)cc2c(=O)c(C(=O)O)cn(C3CC3)c12	>10 µM
O=C1CSC(C23CC4CC(CC(C4)C2)C3)N1c1ccc(Cl)c(C(F)(F)F)c1	240 µM
Cc1cn([C@H]2C[C@H](O)[C@@H](COC(=O)CCCCCCCCCCCBr)O2)c(=O)[nH]c1=O	>52 µM
Nc1nc(=O)n([C@@H]2C=C[C@H](CO)O2)cc1F	>100 µM
Nc1ccn([C@H]2O[C@@H](CO)C=C2F)c(=O)n1	>100 µM
Nc1cc(OCC2O[C@H](COCc3ccccc3)[C@@H](OCc3ccccc3)[C@H]2OCc2ccccc2)nc(N)n1	23 µM
COC(=O)[C@H](C)NP(=O)(OC[C@@H]1C=C[C@H](n2cc(C)c(=O)[nH]c2=O)O1)Oc1ccccc1	100 µM
CCCCCCCCCCCCC(Br)C(=O)OC[C@H]1O[C@@H](n2cc(C)c(=O)[nH]c2=O)CC1O	18 µM
Cc1cc(C)nc(N2C(=O)CSC2c2c(C(F)(F)F)ccc(Cl)c2F)c1	130 µM
CCCc1c(Cc2cccc3ccccc23)n(COC)c(=O)[nH]c1=O	128 µM
CC1(CO)CCC(Cn2nnc3c(N)nc(N)nc32)C1(C)C	108 µg/mL
COc1cc2ccnc3c2c(c1OC)N(CCC(C)C)C=C3	16.3 µM
Nc1ccc2c(c1)C(=O)N(C13CC4CC(CC(C4)C1)C3)C2=O	30.4 µM
CCCCCCCCCCC(c1ccc(O)c(C(=O)O)c1)c1ccc(O)c(C(=O)O)c1	84.6 µM
CCOCn1c(Cc2cccc3ccccc23)c(C(C)C)c(=O)[nH]c1=O	32.1 µM
O=C1O[C@](C#CC2CC2)(C(F)(F)F)c2cc(Cl)ccc2N1CN1CCN(c2cccc(Cl)c2)CC1	>10 µM
CCCS(=O)(=O)Oc1c(OC)cc2ccnc3c2c1N(C)C=C3	6 µM
Cc1cn([C@H]2C[C@H](O)[C@@H](COC(=O)CCCCCCCCCCN=[N+]=[N-])O2)c(=O)[nH]c1=O	32 µM
CC(C)C[C@@H](CCC(=O)O)NC(=O)c1ccccc1SSc1ccccc1C(=O)N[C@H](CCC(=O)O)CC(C)C	>100 µM
CCCCCCC(=O)NCCCCCC(=O)O	>100 µg/mL
Cc1cccc(C)c1N1C(=O)c2ccc([N+](=O)[O-])cc2C1=O	≥517 µM
CCn1cc(C(=O)O)c(=O)c2cc(F)c(N3CCN(CN4C(=O)O[C@](C#CC5CC5)(C(F)(F)F)c5cc(Cl)ccc54)CC3)c(F)c21	>10 µM
C[C@H](CCC=C(c1cc(Cl)c(O)c(C(=O)O)c1)c1cc(Cl)c(O)c(C(=O)O)c1)[C@H]1CC[C@H]2[C@@H]3CC[C@@H]4CC(F)(F)CC[C@]4(C)[C@H]3CC[C@]12C	>41 µM
Nc1nc(Cl)cc(OC[C@@H]2O[C@H](COCc3ccccc3)[C@@H](OCc3ccccc3)[C@H]2OCc2ccccc2)n1	35 µM
Cc1cc2c(cc1Cl)Sc1nccn1S2(=O)=O	79.3 µM
O=c1[nH]cnc2c1ncn2CC1(CO)CC1CO	>100 µg/mL
CO[C@]12CS(=O)(=O)O[C@@]13[C@@H](CN2)O[C@@H](n1cc(C)c(=O)[nH]c1=O)[C@@H]3O	>250 µM
COc1cc(Cc2cnc(/N=C3\C(=O)N(CN4CCN(c5ccc([N+](=O)[O-])cc5)CC4)c4ccc(C)cc43)nc2N)cc(OC)c1OC	37.4 µM
C[C@H](CCC=C(c1cc(Cl)c(O)c(C(=O)O)c1)c1cc(Cl)c(O)c(C(=O)O)c1)[C@H]1CC[C@H]2[C@@H]3CC[C@@H]4CCCC[C@]4(C)[C@H]3CC[C@]12C	79 µM
Nc1ccn([C@@H]2O[C@H](CO)C=C2F)c(=O)n1	35.3 µM
Cc1cccc(C)c1N1C(=O)c2ccc(N)cc2C1=O	61 µM
Cc1cccc(C)c1C1SCC(=O)N1c1cccc(Br)n1	>275 µM
CN1CCCC12C1CC3CC(C1)CC2C3	>200 µg/mL
Nc1nc(N)nc(OC[C@H]2CC[C@@H](COc3nc(N)nc(N)n3)O2)n1	>50 µM
CC1(CO)CCC(Cn2cnc3c(N)nc(N)nc32)C1(C)C	28 µg/mL
Cc1cn([C@@H]2OC3CN[C@@]4(OCC(C)C)CS(=O)(=O)O[C@@]34[C@H]2O[Si](C)(C)C(C)(C)C)c(=O)[nH]c1=O	21.1 µM
COc1cc(Cc2cnc(/N=C3\C(=O)N(CN4CCCCC4)c4ccc(C)cc43)nc2N)cc(OC)c1OC	105 µM
Cc1cccc(C)c1NC(=O)c1ccc([N+](=O)[O-])cc1	99 µM
CCN1C=Cc2nccc3cc(OC)c(OC)c1c23	69 µM
O=c1ccn([C@@H]2C[C@@H](F)[C@H](CO)O2)c(=O)[nH]1	>100 µM
Cc1cn([C@@H]2OC3COC4(O)CS(=O)(=O)OC34C2O[Si](C)(C)C(C)(C)C)c(=O)[nH]c1=O	>100 µM
COc1c(Cl)cc(C(=Cc2c(F)c(F)c(F)c(F)c2F)c2cc(Cl)c(OC)c(C(=O)O)c2)cc1C(=O)O	412 µM
CCCOC12CS(=O)(=O)OC13[C@@H](CN2)O[C@@H](n1cc(C)c(=O)[nH]c1=O)[C@@H]3O[Si](C)(C)C(C)(C)C	28.5 µM
Cc1ccnc(N2C(=O)CSC2c2c(F)ccc(C)c2Cl)n1	158.5 µM
CCC[n+]1ccc2cc(OC)c(OC)c3c2c1C=CN3	23.8 µM
CCCCCCCCNC(=O)CCCC(=O)O	26 µg/mL
CCc1c(Cc2ccc3ccccc3c2)n(COCc2ccccc2)c(=O)[nH]c1=O	22.2 µM
Nc1nc(OC[C@H]2CC[C@@H](COCc3ccccc3)O2)cc(OC[C@@H]2CC[C@H](COCc3ccccc3)O2)n1	28 µM
CC(C)CCC[C@@H](C)[C@H]1CC[C@H]2[C@@H]3CC[C@H]4C[C@@H](CCC=C(c5cc(Cl)c(O)c(C(=O)O)c5)c5cc(Cl)c(O)c(C(=O)O)c5)CC[C@]4(C)[C@H]3CC[C@]12C	>300 µg/mL
Nc1cc(OC[C@H]2CC[C@@H](COCc3ccccc3)O2)nc(N)n1	>250 µM
CCCCCCCCCNC(=O)CCC(=O)O	16 µg/mL
Cc1c(Cc2cccc3ccccc23)n(COCc2ccccc2)c(=O)[nH]c1=O	41.7 µM
CC(C)(C)C[C@H](NC(=O)c1ccccc1SSc1ccccc1C(=O)N[C@@H](CC(C)(C)C)C(=O)O)C(=O)O	92 µM
COc1cc(Cc2cnc(/N=C3\C(=O)N(CN4CCCC4)c4ccc(C)cc43)nc2N)cc(OC)c1OC	122 µM
C[C@H](CS(C)(=O)=O)C(=O)N[C@@H](Cc1ccccc1)[C@H](O)CN1C[C@H]2CCCC[C@H]2C[C@H]1C(=O)NC(C)(C)C	2 µM
Cc1cc(NS(=O)(=O)c2ccc(Nc3c4ccccc4nc4c(C(=O)Nc5ccc(S(=O)(=O)N=C(N)N)cc5)cccc34)cc2)no1	>250 µM
O=C(N[C@@H](Cc1ccc(O)cc1)C(=O)O)c1ccccc1SSc1ccccc1C(=O)N[C@@H](Cc1ccc(O)cc1)C(=O)O	>165 µM
Cc1cc(Cl)cc2c1S(=O)(=O)n1ccnc1S2	>200 µM
CC(=O)NCCCCCCCCCCC(=O)O	107 µg/mL
Cc1cccc(C)c1N1C(=O)c2ccc(C(=O)O)cc2C1=O	21 µM

Repeating the first 9 entries:

SMILES | value
CCCCCCCCCCCCC(N=[N+]=[N-])C(=O)OC[C@H]1O[C@@H](n2cc(C)c(=O)[nH]c2=O)C[C@@H]1O | >20 µM
CC(C)CCC[C@@H](C)[C@H]1CC[C@H]2[C@@H]3CC[C@H]4C[C@@H](CCC=C(c5cc(Cl)c(O)c(C(=O)O)c5)c5cc(Cl)c(O)c(C(=O)O)c5)CC[C@]4(C)[C@H]3CC[C@]12C | >310 µM
CN(C)C1CC12C1CC3CC(C1)CC2C3 | >200 µg/mL
Cc1cnc2n1S(=O)(=O)c1cc(C(=O)NCC(C)C)c(Cl)cc1S2 | >200 µM
CC(C)C[C@@H](CC(=O)O)NC(=O)c1ccccc1SSc1ccccc1C(=O)N[C@H](CC(=O)O)CC(C)C | 92 µM
CCCCCOC(=O)CCCCCCC(=O)O | >100 µg/mL
CC(C)CCC[C@@H](C)[C@H]1CC[C@H]2[C@@H]3CC[C@H]4C[C@@H](CCC=C(c5cc(Br)c(O)c(C(=O)O)c5)c5cc(Br)c(O)c(C(=O)O)c5)CC[C@]4(C)[C@H]3CC[C@]12C | >280 µM
Cc1cn([C@@H]2O[C@@H]3CN[C@@]4(OCc5ccccc5)CS(=O)(=O)O[C@@]34[C@H]2O)c(=O)[nH]c1=O | >250 µM
Nc1ccn([C@@H]2S[C@H](CO)C=C2F)c(=O)n1 | >100 µM